System: tetanus toxoid (TT)
Experiment: Adjuvant effect on tetanus toxoid (TT) protein vaccine
Type: in vivo, mouse
Details: vaccinated day 0 and day 28

α-Galactosyl ceramide
production of anti-TT-specific IgG antibody: enhanced
